Results on 1 substance are retold here after patent US20240218073A1, “IMMUNOMODULATORY ANTI-CD73 ANTIBODIES AND USES THEREOF” (Corvus Pharmaceuticals, Inc., priority 2019, published 2024).

The test system of data set [1] is memory B cells and memory/effector T cells. As to the kind of experiment: COVID-19 patients: immunophenotyping of PBMCs. It counts as in vivo, human. To be noted: baseline vs 14 or 28 days after treatment.
Data set [2] can be described thus: Phase 1 trial in cancer patients: serum immunoglobulins. The class given is in vivo, human. To be noted: cancer patients (n=10), 21 days post treatment compared to baseline. An excerpt:
Blood was collected from patients treated with CPI-006 for immunoglobulins analysis at pre-treatment or prior to dose administration at the beginning of Cycle 4 (9 weeks), Cycle 7 (18 weeks) and Cycle 10 (27 weeks).
CPI-006 is being evaluated as an immunotherapy for cancer in an ongoing phase 1 study (NCT03454451). The cancers being evaluated in the study include non-small cell lung cancer, renal cell cancer, colorectal cancer, triple negative breast cancer, cervical cancer, ovarian cancer, pancreatic cancer, endometrial cancer, sarcoma, squamous cell carcinoma of the head and neck, bladder cancer, metastatic castration resistant prostate cancer, and non-Hodgkin lymphoma. […] Memory B cells are essential for both acute and long-term immunity as they have undergone immunoglobulin rearrangement and somatic hypermutation in order to produce high affinity, antigen-specific antibody upon exposure to antigen. […] These new B cell clones were limited to 2-40 clones per patient and appeared with frequencies as high as 1:100 B cells, consistent with a robust clonal expansion following an antigen-specific response (FIG. 15I-15K). The cognate antigens recognized by these new B cell clones are currently under characterization.

The subject of data set [3] is recombinant RBD binding to human ACE2. Kind of data set: COVID-19 patients: RBD-ACE2 blocking assay of serum. It counts as in vivo. To be noted: 0.3 or 1.0 mg/kg.
A further data set has as its system SARS-CoV-2 TS and/or RBD. As to the kind of experiment: COVID-19 patients: anti-SARS-CoV-2 antibody ELISA. It counts as in vivo, human. In general terms: ELISA stands for enzyme-linked immunosorbent assay.
The test system of the next data set is SARS-CoV-2 peptides. Kind of data set: COVID-19 patients: antigen specific T cell Peptivator assay. The class given is in vivo, human. The settings on record: one patient, 0.3 mg/kg.

Where “and” joins values, the source holds several entries; their conditions need not be identical. Equal values may be shown once.

As to “CPI-006: humanized anti-CD73 IgG1k antibody with 1E9 CDRs (SEQ ID NO:1-6) and N297Q mutation eliminating Fc effector functions”, in data set [1] (0.3 mg/kg), the “evaluated patients with increased frequency of memory B cells” value is recorded as “two of two”. Also, the “evaluated patients with increased frequency of memory/effector CD4^POS and CD8^POS T cells” value in data set [1] is listed as “three out of three”. Also, in data set [2], the “antigen-specific IgG response against mumps, CMV, rubella, measles, HSV1” value is “unaltered antigen-specific IgG response”. The “neutralizing antibody levels (block of recombinant RBD binding to human ACE2)” value in data set [3] was “corresponding increase in neutralizing antibody levels”. Also, the “IgG and IgM titers” value in the data set with SARS-CoV-2 TS and/or RBD ([…], extending 28 days after administration) is on record as > 100,000. The “antibody levels compared to convalescent sera” value with SARS-CoV-2 TS and/or RBD (convalescent sera collected at 4-6 weeks POS) was “reached higher titers compared to convalescent sera”. Besides, in the data set with SARS-CoV-2 TS and/or RBD (out to 28 days post treatment), the “course of IgG and IgM levels to viral TS or RBD and neutralization antibodies” value is given as “Continually increasing”. The “evaluable patients with rapidly increased IgG and IgM antibody titers against SARS-CoV-2 TS and/or RBD” value in the data set on SARS-CoV-2 TS and/or RBD (within 7 days of a single infusion, 0.3 or 1.0 mg/kg) was 8/8. Also, the “Th1 cytokine production of PBMCs stimulated with SARS-CoV-2 M, N or S peptides” value in the data set with SARS-CoV-2 peptides is “produced Th1 cytokines such as IFNg and IL-2”. In the data set with SARS-CoV-2 (COVID-19 patients, 0.3 and 1.0 mg/kg cohorts), the “median time to discharge after hospitalization” value worked out at 4 days. The “infusion related reactions and treatment related adverse events” value in the data set on SARS-CoV-2 (COVID-19 patients, single iv dose 0.3 or 1.0 mg/kg) is given as “No infusion related reactions or other treatment related adverse events have been observed”. The clinical recovery result with SARS-CoV-2 (COVID-19 patients, single iv dose 0.3 or 1.0 mg/kg, standard care allowed) is “All patients recovered with improvement of inflammatory markers and symptoms”. Further, in the data set on SARS-CoV-2 (individual COVID-19 patient, CPI-006 dose 0.3 mg/kg, 0.3 mg/kg), the “Day Discharged” value is 4 (3×) and 5 and 6.
